Anti-infective test results gathered from many reports (values: NIAID ChemDB through PubChem).

Common to all: tests on isolated targets; agent: HIV-1; target: Reverse transcriptase; read by: nucleotide incorporation; endpoint: inhibition

Lines come from different laboratories, so protocols vary. a–b is a range or a potency band. Percent inhibition refers to the dose given; in toxicity tests it is the harm to the cells.

compound	dose	value
CC(C)(C)c1csc(NC(=O)NCCc2ccccc2)n1	1 µg/mL	8%
NOCc1c(F)cccc1Cl	4 µg/mL	0%
COc1ccc2c(c1)C=CC(C#N)N2C(=O)Oc1ccc(Cl)cc1	50 µM	≤30%
CC(C)Nc1cccnc1N(C)C1CCC(N(C)C(=O)c2cc3ccccc3[nH]2)CC1	100 µM	4%
CCOC(=O)N1c2ccccc2C=CC1C(N)=O	50 µM	≤30%
CC(C)Nc1cccnc1N(C)C1CCN(C(=O)c2cc3ccccc3[nH]2)C1	100 µM	24%
N#CC1C=Cc2ccccc2N1C(=O)c1cccnc1Cl	50 µM	≤30%
O=C(NCCc1ccccc1)Nc1ccccc1	10 µg/mL	16%
CCN(C(C)=O)c1cccnc1N1CCN(C(=O)c2cc3ccccc3[nH]2)CC1	100 µM	9%
CCN1c2ncccc2-c2cscc2-c2ccc(Cl)nc21	1 µM	97%
N#Cc1csc(NC(=O)NCCc2ccccc2)n1	0.1 µg/mL	72–73%
CC(C)Nc1cccnc1N1CCCN(C(=O)c2cc3ccccc3[nH]2)CC1	100 µM	94%
CC(C)COC(=O)N1c2ccccc2C=CC1C#N	50 µM	82.6%
CC(C)Nc1cccnc1N(C)CC(C)(C)CN(C)C(=O)c1cc2ccccc2[nH]1	100 µM	29%
O=C(NCCc1ccccc1)Nc1cnccn1	10 µg/mL	36%
CCOC(=O)N1c2ccc(O)cc2C=CC1C#N	50 µM	≤30%
COC(=O)C(=O)c1csc(NC(=O)NCCc2ccccc2)n1	10 µg/mL	13%
CCCCOC(=O)N1c2ccccc2C=CC1C#N	50 µM	88.9%
CCOc1ccc2nc(NC(=O)NCCc3ccccc3)sc2c1	1 µg/mL	5%
CCN1c2ncccc2-c2cscc2-c2cccnc21	1 µM	96%
O=C(NCCc1ccccc1)Nc1nc2ccc(F)cc2s1	0.1 µg/mL	33%
COc1ccc2c(c1)C=CC(C#N)N2C(=O)c1ccco1	50 µM	40.5%
Cc1nc(NC(=O)NCCc2ccccc2)sc1C	10 µg/mL	38%
N#CC1C=Cc2cc([N+](=O)[O-])ccc2N1C(=O)OCCBr	50 µM	47.3%

Again, the opening 2 rows:

CC(C)(C)c1csc(NC(=O)NCCc2ccccc2)n1 ; dose: 1 µg/mL ; value: 8%
NOCc1c(F)cccc1Cl ; dose: 4 µg/mL ; value: 0%